Measured values taken from PMC7105911 (Journal of Molecular Biology, 2011).

Legend:
Test in all cases: SPR
[1] = biological target: T1, SC_2cx5 (side-chain grafting 2F5 epitope scaffold on parent PDB 2cx5) (designed scaffold on Thermus …)
T1 chain: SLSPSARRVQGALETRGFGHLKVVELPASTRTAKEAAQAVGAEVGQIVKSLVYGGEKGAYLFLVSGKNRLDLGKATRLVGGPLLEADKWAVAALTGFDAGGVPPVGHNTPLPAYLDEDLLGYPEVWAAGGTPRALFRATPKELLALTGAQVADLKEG

[2] = biological target: T2, BB_1wnu_001 (backbone grafting 2F5 epitope scaffold on parent PDB 1wnu) (designed scaffold on Pyrococcus …)
T2 chain: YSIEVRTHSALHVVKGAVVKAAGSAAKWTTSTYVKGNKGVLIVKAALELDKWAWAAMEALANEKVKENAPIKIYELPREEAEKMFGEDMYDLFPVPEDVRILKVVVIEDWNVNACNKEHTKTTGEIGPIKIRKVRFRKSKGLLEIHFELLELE

[3] = biological target: T3, BB_2cx5_001 (backbone grafting 2F5 epitope scaffold on parent PDB 2cx5) (designed scaffold on Thermus …)
T3 chain: T1 chain with V52A, E56S, T76A, G81T, P82D, A86L, D98A

B1: 2F5 monoclonal antibody (2F5 IgG) (antibody, V domains shown)
VH: RITLKESGPPLVKPTQTLTLTCSFSGFSLSDFGVGVGWIRQPPGKALEWLAIIYSDDDKRYSPSLNTRLTITKDTSKNQVVLVMTRVSPVDTATYFCAHRRGPTTLFGVPIARGPVNAMDVWGQGITVTISS
VL: ALQLTQSPSSLSASVGDRITITCRASQGVTSALAWYRQKPGSPPQLLIYDASSLESGVPSRFSGSGSGTEFTLTISTLRPEDFATYYCQQLHFYPHTFGGGTRVDVR
B1 was tested, and the koff [1] was 0.0236 s⁻¹, the kon [1] was 587000 M⁻¹ s⁻¹ and the koff [2] was 0.073 s⁻¹. The kon [2] was 8.8e+06 M⁻¹ s⁻¹, the koff [3] was 0.00179 s⁻¹ and the kon [3] was 1.31e+06 M⁻¹ s⁻¹.

Where a chain is given by its changes, count along the chain named.
